Anti-infective test results gathered from many reports (values: NIAID ChemDB through PubChem).

Shared fields: whole-cell or culture tests; agent: Mycobacterium avium complex; read-out: MIC

Two numbers with a dash give a range or band. An empty or dashed field is not shown. Conditions beyond the fields shown may differ between rows.

smiles | strain | read by | value
CCC(C)N1CCN(c2cc(=O)c3nc4c(oc3c2)c2c(=O)c3c(O)c(C)c5c(c34)=C(O)[C@@](C)(O/C=C/[C@H](OC)[C@@H](C)[C@@H](OC(C)=O)[C@H](C)[C@H](O)[C@H](C)[C@@H](O)[C@@H](C)/C=C/C=C(/C)C(=O)N2)O5)CC1 | 31F093T | - | 0.035 µg/mL
O=C(O)c1cn(C2CC2)c2c(F)c(N3CCN4CCC3C4)c(F)cc2c1=O | 1915112 | - | 4 µg/mL
Brc1ccc(CSc2nc3ccccc3[nH]2)cc1 | MY330/88 | - | >125 µM
CC[C@H]1OC(=O)[C@H](C)[C@@H](O[C@H]2C[C@@](C)(OC)[C@@H](O)[C@H](C)O2)[C@H](C)[C@@H](O[C@@H]2O[C@H](C)C[C@H](N(C)C)[C@H]2O)[C@](C)(OC)C[C@@H](C)C(=O)[C@H](C)[C@@H](O)[C@]1(C)O | 3220 | - | 2 µg/mL
O=[N+]([O-])c1ccc(CSc2nc3ccccc3[nH]2)cc1 | MY330/88 | - | 8 µM
CO[C@H]1/C=C/O[C@@]2(C)Oc3c(C)c(O)c4c(=O)c(c5oc6cc(N7CCN(C=O)CC7)cc(=O)c6nc5c4c3=C2O)NC(=O)/C(C)=C\C=C\[C@H](C)[C@H](O)[C@@H](C)[C@@H](O)[C@@H](C)[C@H](OC(C)=O)[C@@H]1C | 31F093T | - | 1.25 µg/mL
FC(F)(F)c1cc(CSc2nc3ccccc3[nH]2)cc(C(F)(F)F)c1 | MY330/88 | - | >62 µM
CCCCCCCCOC1OC(C)C(O[C@@H]2O[C@@H]([C@H](O)CO)[C@H](O)[C@H]2O)C(O)C1O | NJ3404 | - | >128 µg/mL
CO[C@H]1/C=C/O[C@@]2(C)Oc3c(C)c(O)c4c(O)c(c5c(c4c3C2=O)NC2(CCN(CC(C)C)CC2)N=5)=NC(=O)/C(C)=C\C=C\[C@H](C)[C@H](O)[C@@H](C)[C@@H](O)[C@@H](C)[C@H](OC(C)=O)[C@@H]1C | 31F093T | - | 1.25 µg/mL
CN(C)c1c(F)c(N2CCC(N(C)C)C2)c(F)c2c1c(=O)c(C(=O)O)cn2C1CC1 | 1915112 | - | 32 µg/mL
CC[C@@H](CO)NCCN[C@@H](CC)CO | N-966 | - | 32 µg/mL
CC1(C)S[C@@H]2[C@H](NC(=O)[C@H](NC(=O)N3CCNC3=O)c3ccccc3)C(=O)N2[C@H]1C(=O)O | 31 strains | - | 64 µg/mL
CC[C@@H](CO)NCCN[C@@H](CC)CO | 211-5 | - | 3.8 µg/mL
CCn1cc(C(=O)O)c(=O)c2cc(F)c(N3CCNCC3)cc21 | 30 isolates | - | 128 µg/mL
Fc1ccccc1CSc1nc2ccccc2[nH]1 | MY330/88 | - | 125 µM
CO[C@H]1/C=C/O[C@@]2(C)Oc3c(C)c(O)c4c(=O)c(c5oc6cc(N7CCN(CC(C)C)CC7)cc(=O)c6nc5c4c3=C2O)NC(=O)/C(C)=C\C=C\[C@H](C)[C@H](O)[C@@H](C)[C@@H](O)[C@@H](C)[C@H](OC(C)=O)[C@@H]1C | N-966 | - | 0.12 µg/mL
CO[C@H]1/C=C/O[C@@]2(C)Oc3c(C)c(O)c4c(=O)c(c5oc6cc(N7CCN(C(C)C)CC7)cc(=O)c6nc5c4c3=C2O)NC(=O)/C(C)=C\C=C\[C@H](C)[C@H](O)[C@@H](C)[C@@H](O)[C@@H](C)[C@H](OC(C)=O)[C@@H]1C | 31F093T | - | 0.07 µg/mL
CC1(C)S[C@@H]2[C@H](NC(=O)[C@H](C(=O)[O-])c3ccsc3)C(=O)N2[C@H]1C(=O)[O-].[Na+].[Na+] | 30 isolates | - | >128 µg/mL
CN[C@@H]1[C@H](O[C@H]2[C@H](O[C@H]3[C@H](O)[C@@H](O)[C@H](N=C(N)N)[C@@H](O)[C@@H]3N=C(N)N)O[C@@H](C)[C@]2(O)C=O)O[C@@H](CO)[C@H](O)[C@H]1O | Isolate 93 | - | 100 µg/mL
O=C(O)[C@H]1/C(=C/CO)O[C@@H]2CC(=O)N21 | 30 isolates | - | >128 µg/mL
Clc1ccccc1CSc1nc2ccccc2[nH]1 | MY330/88 | - | >62 µM
CC1CN(c2c(F)cc3c(=O)c(C(=O)O)cn(C4CC4)c3c2F)CC(C)N1 | 1915112 | - | 2 µg/mL
CC[C@@H](CO)NCCN[C@@H](CC)CO | 804/HIV+ | - | <2 µg/mL
CO[C@H]1/C=C/O[C@@]2(C)Oc3c(C)c(O)c4c(O)c(c5c(c4c3C2=O)NC2(CCN(CC(C)C)CC2)N=5)=NC(=O)/C(C)=C\C=C\[C@H](C)[C@H](O)[C@@H](C)[C@@H](O)[C@@H](C)[C@H](OC(C)=O)[C@@H]1C | 30 isolates | - | 0.03–2 µg/mL
CO[C@H]1/C=C/O[C@@]2(C)Oc3c(C)c(O)c4c(=O)c(c5oc6cc(N7CCN(CC(C)C)CC7)cc(=O)c6nc5c4c3=C2O)NC(=O)/C(C)=C\C=C\[C@H](C)[C@H](O)[C@@H](C)[C@@H](O)[C@@H](C)[C@H](OC(C)=O)[C@@H]1C | 31F093T | - | 0.07 µg/mL
CO[C@H]1/C=C/O[C@@]2(C)Oc3c(C)c(O)c4c(=O)c(c5oc6cc(N7CCN(CC(C)C)CC7)cc(=O)c6nc5c4c3=C2O)NC(=O)/C(C)=C\C=C\[C@H](C)[C@H](O)[C@@H](C)[C@@H](O)[C@@H](C)[C@H](O)[C@@H]1C | 31F093T | - | 0.07 µg/mL
CO/N=C(\C(=O)N[C@@H]1C(=O)N2C(C(=O)O)=CCS[C@H]12)c1csc(N)n1 | 31 strains | - | 128 µg/mL
CCCN1CCN(c2cc(=O)c3nc4c(oc3c2)c2c(=O)c3c(O)c(C)c5c(c34)=C(O)[C@@](C)(O/C=C/[C@H](OC)[C@@H](C)[C@@H](OC(C)=O)[C@H](C)[C@H](O)[C@H](C)[C@@H](O)[C@@H](C)/C=C/C=C(/C)C(=O)N2)O5)CC1 | 31F093T | - | 0.035 µg/mL
NC1CCCCN(c2c(F)cc3c(=O)c(C(=O)O)cn(C4CC4)c3c2F)C1=O | 1988557 | - | 32 µg/mL
NCCC[C@H](N)CC(=O)N[C@H]1CNC(=O)[C@H]([C@H]2C[C@H](O)NC(N)=N2)NC(=O)/C(=C/NC(N)=O)NC(=O)[C@H](CO)NC(=O)[C@H](CO)NC1=O | TMC 1469 | - | 6.25 µg/mL
NCC[C@H](O)C(=O)N[C@@H]1C[C@H](N)[C@@H](O[C@H]2O[C@H](CN)[C@@H](O)[C@H](O)[C@H]2O)[C@H](O)[C@H]1O[C@H]1O[C@H](CO)[C@@H](O)[C@H](N)[C@H]1O | CH-3/HIV+ | - | 2.5 µg/mL
NNC(=O)c1ccncc1 | 30 isolates | - | 32 µg/mL
NC1CCN(c2nc3c(cc2F)c(=O)c(C(=O)O)cn3-c2ccc(F)cc2F)C1 | ATCC 35718 | - | >8 µg/mL
CO[C@H]1/C=C/O[C@@]2(C)Oc3c(C)c(O)c4c(O)c(c(/C=N/N5CCN(C)CC5)c(O)c4c3C2=O)NC(=O)/C(C)=C\C=C\[C@H](C)[C@H](O)[C@@H](C)[C@@H](O)[C@@H](C)[C@H](OC(C)=O)[C@@H]1C | 1257/HIV- | - | 2 µg/mL
NC[C@H]1O[C@H](O[C@H]2[C@H](O)[C@@H](O[C@H]3O[C@H](CO)[C@@H](O)[C@H](N)[C@H]3O)[C@H](N)C[C@@H]2N)[C@H](O)[C@@H](O)[C@@H]1O | N-238 (HIV-) | - | 8 µg/mL
CN[C@@H]1[C@H](O[C@H]2[C@H](O[C@H]3[C@H](O)[C@@H](O)[C@H](N=C(N)N)[C@@H](O)[C@@H]3N=C(N)N)O[C@@H](C)[C@]2(O)C=O)O[C@@H](CO)[C@H](O)[C@H]1O | Isolate C-40 | - | 400 µg/mL
CO[C@H]1/C=C/O[C@@]2(C)Oc3c(C)c(O)c4c(=O)c(c5oc6cc(N7CCOCC7)cc(=O)c6nc5c4c3=C2O)NC(=O)/C(C)=C\C=C\[C@H](C)[C@H](O)[C@@H](C)[C@@H](O)[C@@H](C)[C@H](OC(C)=O)[C@@H]1C | 31F093T | - | 0.3 µg/mL
CCCN1CCN(c2cc(=O)c3nc4c(oc3c2)c2c(=O)c3c(O)c(C)c5c(c34)=C(O)[C@@](C)(O/C=C/[C@H](OC)[C@@H](C)[C@@H](OC(C)=O)[C@H](C)[C@H](O)[C@H](C)[C@@H](O)[C@@H](C)/C=C/C=C(/C)C(=O)N2)O5)CC1 | 31F093T | - | 0.07 µg/mL
CC[C@H]1OC(=O)[C@H](C)[C@@H](O[C@H]2C[C@@](C)(OC)[C@@H](O)[C@H](C)O2)[C@H](C)[C@@H](O[C@@H]2O[C@H](C)C[C@H](N(C)C)[C@H]2O)[C@](C)(O)C[C@@H](C)C(=O)[C@H](C)[C@@H](O)[C@]1(C)O | 3214 | - | 16 µg/mL
O=C(O)c1cn(C2CC2)c2c(F)c(N3CC4CCCC(C3)N4)c(F)cc2c1=O | 1915112 | - | 8 µg/mL
CC(C)N=c1cc2n(-c3ccc(Cl)cc3)c3ccccc3nc-2cc1Nc1ccc(Cl)cc1 | PLR-3/HIV+ | - | 0.125 µg/mL
CCC(C)N1CCN(c2cc(=O)c3nc4c(oc3c2)c2c(=O)c3c(O)c(C)c5c(c34)=C(O)[C@@](C)(O/C=C/[C@H](OC)[C@@H](C)[C@@H](OC(C)=O)[C@H](C)[C@H](O)[C@H](C)[C@@H](O)[C@@H](C)/C=C/C=C(/C)C(=O)N2)O5)CC1 | 31F093T | - | 0.035 µg/mL
CO[C@H]1/C=C/O[C@@]2(C)Oc3c(C)c(O)c4c(O)c(c(/C=N/N5CCN(C6CCCC6)CC5)c(O)c4c3C2=O)NC(=O)/C(C)=C\C=C\[C@H](C)[C@H](O)[C@@H](C)[C@@H](O)[C@@H](C)[C@H](OC(C)=O)[C@@H]1C | Serotype 1 | - | >40 µg/mL
CNC1CCN(c2c(F)cc3c(=O)c(C(=O)O)cn(C4CC4)c3c2F)C1 | 1988557 | - | 2 µg/mL
CN1CCN(c2cc3c(cc2F)c(=O)c(C(=O)O)cn3-c2ccc(F)cc2)CC1 | 3213 | - | 16 µg/mL
NC[C@H]1O[C@H](O[C@H]2[C@H](O)[C@@H](O[C@H]3O[C@H](CO)[C@@H](O)[C@H](N)[C@H]3O)[C@H](N)C[C@@H]2N)[C@H](O)[C@@H](O)[C@@H]1O | Isolate 64 | - | 6.25 µg/mL
C[C@@H]1CN(c2c(F)c(N)c3c(=O)c(C(=O)O)cn(C4CC4)c3c2F)C[C@H](C)N1 | 1 | broth dilution | 1 µg/mL
CCCCSc1nc2ccccc2[nH]1 | MY330/88 | - | 125 µM
CO[C@H]1/C=C/O[C@@]2(C)Oc3c(C)c(O)c4c(O)c(c(/C=N/N5CCN(C)CC5)c(O)c4c3C2=O)NC(=O)/C(C)=C\C=C\[C@H](C)[C@H](O)[C@@H](C)[C@@H](O)[C@@H](C)[C@H](OC(C)=O)[C@@H]1C | N-276 | - | 1.56 µg/mL
CO[C@H]1/C=C/O[C@@]2(C)Oc3c(C)c(O)c4c(O)c(c(/C=N/N5CCN(C)CC5)c(O)c4c3C2=O)NC(=O)/C(C)=C\C=C\[C@H](C)[C@H](O)[C@@H](C)[C@@H](O)[C@@H](C)[C@H](OC(C)=O)[C@@H]1C | N-444 | - | 8 µg/mL
NC[C@@H]1O[C@H](O[C@H]2[C@@H](O)[C@H](O[C@@H]3[C@@H](O)[C@H](N)C[C@H](N)[C@H]3O[C@H]3O[C@H](CO)[C@@H](O)[C@H](O)[C@H]3N)O[C@@H]2CO)[C@H](N)[C@@H](O)[C@@H]1O | Isolate 49 | - | 25 µg/mL
C[C@@H](O)[C@H]1C(=O)N2C(C(=O)O)=C(SCCN=CN)C[C@H]12 | 31 strains | - | 8 µg/mL

Repeating the first 7 entries:

smiles	strain	read by	value
CCC(C)N1CCN(c2cc(=O)c3nc4c(oc3c2)c2c(=O)c3c(O)c(C)c5c(c34)=C(O)[C@@](C)(O/C=C/[C@H](OC)[C@@H](C)[C@@H](OC(C)=O)[C@H](C)[C@H](O)[C@H](C)[C@@H](O)[C@@H](C)/C=C/C=C(/C)C(=O)N2)O5)CC1	31F093T	-	0.035 µg/mL
O=C(O)c1cn(C2CC2)c2c(F)c(N3CCN4CCC3C4)c(F)cc2c1=O	1915112	-	4 µg/mL
Brc1ccc(CSc2nc3ccccc3[nH]2)cc1	MY330/88	-	>125 µM
CC[C@H]1OC(=O)[C@H](C)[C@@H](O[C@H]2C[C@@](C)(OC)[C@@H](O)[C@H](C)O2)[C@H](C)[C@@H](O[C@@H]2O[C@H](C)C[C@H](N(C)C)[C@H]2O)[C@](C)(OC)C[C@@H](C)C(=O)[C@H](C)[C@@H](O)[C@]1(C)O	3220	-	2 µg/mL
O=[N+]([O-])c1ccc(CSc2nc3ccccc3[nH]2)cc1	MY330/88	-	8 µM
CO[C@H]1/C=C/O[C@@]2(C)Oc3c(C)c(O)c4c(=O)c(c5oc6cc(N7CCN(C=O)CC7)cc(=O)c6nc5c4c3=C2O)NC(=O)/C(C)=C\C=C\[C@H](C)[C@H](O)[C@@H](C)[C@@H](O)[C@@H](C)[C@H](OC(C)=O)[C@@H]1C	31F093T	-	1.25 µg/mL
FC(F)(F)c1cc(CSc2nc3ccccc3[nH]2)cc(C(F)(F)F)c1	MY330/88	-	>62 µM